Results of unrelated studies side by side (data: NIAID ChemDB).

Common to all: growth or infection tests; agent: Mycobacterium tuberculosis

MIC50, MIC90 and the like: level of inhibition, or share of isolates inhibited. MIC bound comes from a single tested concentration. Blank or dashed fields: not listed here. a–b is a range or a potency band. Percent inhibition refers to the dose given; in toxicity tests it is the harm to the cells. ECn is the concentration giving n% inhibition of infection, replication or growth. Conditions beyond the fields shown may differ between rows.

smiles	strain	dose	read-out	read by	mutations	result
Cc1cc(C(=O)/C=C/c2ccc(Cl)cc2)ccc1O	H37Rv	6.25 µg/mL	inhibition			90%
NNC(=O)c1ccncc1	ATCC 35822 INHr		MIC100	resazurin		2 µg/mL
O=c1[nH]c2c(Cl)c(Cl)ccc2c(O)c1N=Nc1ccc([N+](=O)[O-])cc1	H37Rv		MIC	resazurin		<6.25 µg/mL
CC(=O)N=C1N(/C=C2/C(=O)Oc3ccccc3C2=O)C(=O)/C(=C\c2ccc3c(c2)OCO3)N1C	H37Rv		MIC bound	BACTEC		>12.5 µg/mL
CC(=O)/C(N=Nc1ccc(C(=O)N/N=C/c2ccc([N+](=O)[O-])o2)cc1)=C(\C)O	H37Rv		MIC			3.13 µg/mL
NNC(=O)c1ccncc1	PR410		MIC			1.25 µg/mL
O=c1[nH]c2c(Cl)c(Cl)ccc2c(O)c1N=Nc1cccc([N+](=O)[O-])c1	H37Rv		MIC	resazurin		>6.25 µg/mL
Nc1ccc(C(=O)N/N=C/c2ccccc2F)cc1	H37Rv		MIC			>12.5 µg/mL
COc1nc2ccc(Br)cc2cc1[C@@H](c1ccccc1)[C@@](O)(CCN(C)C)c1cccc2ccccc12	H37Rv		MIC90	resazurin		0.54 µM
NC1CC(c2ccccc2)OC1=O	H37Rv		MIC bound	BACTEC		>12.5 µg/mL
Nc1nccc2c1ncn2[C@@H]1O[C@H](CO)[C@@H](O)[C@H]1O	SRICK1::ADOK		MIC			>100 µg/mL
Cc1nn(-c2ccccc2)c(Cl)c1-c1nc(N)nc2c1c(C)nn2-c1cc(Cl)c(S(=O)(=O)O)cc1Cl	H37Rv		MIC	resazurin		3.25 µg/mL
C=CC[n+]1c(C=Cc2coc3ccccc3c2=O)sc2ccccc21	H37Rv		MIC			125 µM
O=C1N=c2ccccc2=C1c1c(O)[nH]c2ccccc12	H37Rv		MIC90	resazurin		>32 µg/mL
CN1CCC=C(C(=O)O)C1	H37Rv		MIC	BACTEC		≥12.8 µg/mL
NC[C@H]1O[C@H](O[C@H]2[C@H](O)[C@@H](O[C@H]3O[C@H](CO)[C@@H](O)[C@H](N)[C@H]3O)[C@H](N)C[C@@H]2N)[C@H](O)[C@@H](O)[C@@H]1O	H37Rv		MIC	resazurin	K204 kanamycin-resistant	>10 µg/mL
CC(=O)/C(N=Nc1ccc(C(=O)N/N=C/c2ccc([N+](=O)[O-])cc2)cc1)=C(\C)O	H37Rv	12.5 µg/mL	inhibition			13%
CN(C)c1ccc([C@@H]2[C@@H](Cl)C(=O)N2NC2=Nc3ccccc3Sc3ccccc32)cc1	H37Rv		MIC	broth dilution		1000 µg/mL
CCc1cc(C(N)=S)ccn1	H37Rv		MIC			2 µg/mL
CC/C=C\C/C=C\C/C=C\CCCCCCCC(=O)NNC(=O)c1ccncc1	ATCC 35822 INHr		MIC100	resazurin		12.5 µg/mL
C/C(=N\NC(N)[S-])c1ccccn1.CC(=O)/C=C(/C)[O-].[O]=[V+2]	H37Rv (ATCC 27294)		MIC	resazurin		62.5 µg/mL
CO[C@@]1(NC(=O)Cc2cccs2)C(=O)N2C(C(=O)O)=C(COC(N)=O)CS[C@@H]21	Isolate 2		MIC			>16 µg/mL
CN1C[C@H](c2ccccc2)[C@]2(CC3C=CC=CC3C2=O)[C@]12C(=O)c1cccc3cccc2c13	H37Rv		EC90	broth dilution / resazurin		>100 µM
COc1cc([C@](O)(CCN(C)C)[C@@H](c2cc(-c3ccc(C#N)cc3)cnc2OC)c2cccc(OC)c2F)cc(OC)n1	H37Rv		MIC90	resazurin		2.25 µM
COc1ccc(N=Nc2c(O)c3cccc([N+](=O)[O-])c3n(C)c2=O)c(C)c1	H37Rv		MIC	resazurin		>6.25 µg/mL
O=C1C(c2c(O)[nH]c3ccccc23)=Nc2ccccc21	H37Rv		MIC90	resazurin		>32 µg/mL
COc1ccc(N=Nc2c(O)c3c(Cl)ccc(Cl)c3[nH]c2=O)c(C)c1	H37Rv		MIC	resazurin		>6.25 µg/mL
NC1NNC(=S)S1	H37Rv	12.5 µg/mL	inhibition	BACTEC		-16%
CC1(C)[C@H](C(=O)O)N2C(=O)C[C@H]2S1(=O)=O	Isolate 2		MIC			>16 µg/mL
Cc1ccc([C@@H]2[C@@H](Cl)C(=O)N2NC2=Nc3ccccc3Sc3ccccc32)cc1	H37Rv		MIC	broth dilution		1000 µg/mL
NS(=O)(=O)c1cc2c(cc1Cl)NC(CC1CCCC1)NS2(=O)=O	H37Rv	6.25 µg/mL	inhibition	resazurin		-16%
Nc1ccc(C(=O)N/N=C/c2ccc([N+](=O)[O-])o2)cc1	H37Rv		MIC			>12.5 µg/mL
O=C(Cc1cccs1)N[C@@H]1C(=O)N2C(C(=O)[O-])=C(C[n+]3ccccc3)CS[C@H]12	Isolate 5		MIC			>16 µg/mL
Cc1ccc2occ(C=Cc3nc4ccccc4[nH]3)c(=O)c2c1	H37Rv		MIC			250 µM
CC1(C)S[C@@H]2[C@H](NC(=O)[C@H](N)c3ccc(O)cc3)C(=O)N2[C@H]1C(=O)O	Isolate 4		MIC			>16 µg/mL
C[C@@](O)(/C=C/[C@H]1CC=CC(=O)O1)[C@@H](C[C@@H](O)\C=C/C=C\C=C\CO)OP(=O)(O)O	H37Rv		MIC	BACTEC		≥12.5 µg/mL
CC[n+]1c(C=Cc2coc3ccccc3c2=O)sc2ccccc21	H37Rv		MIC			125 µM
O=C(NCCOCCOCCNC(=O)c1ccc2c(c1)B(O)OC2)c1ccc2c(c1)B(O)OC2	H37Rv		MIC	visual reading / absorbance		1560 µM
NNC(=O)c1ccncc1	Clinical isolate 1		MIC			>100 µg/mL
Cc1ccc([N+](=O)[O-])cc1NC(=O)C(=O)C1CCC2=C(Sc3ccccc3N2)C1=O	H37Rv	12.5 µg/mL	inhibition	BACTEC		45%
NNC(=O)c1ccncc1	H37Rv		MIC			15 µM
O=c1[nH]c2ccc(Cl)cc2c(O)c1N=Nc1ccc(F)cc1	H37Rv	6.25 µg/mL	inhibition	resazurin		71%
CCCCCn1c(C)cc(O)c(-c2ccccc2)c1=O	H37Ra		MIC			16 µg/mL
Cc1cc(C(=O)/C=C/c2ccccc2Cl)ccc1O	H37Rv	6.25 µg/mL	inhibition			88%
CC(=O)/C=C(/C)[O-].CNC([S-])N/N=C(\C)c1ccccn1.[O]=[V+2]	H37Rv (ATCC 27294)		MIC	resazurin		3.9 µg/mL
COc1cc([C@](O)(CCN(C)C)[C@@H](c2cc(-c3ccc(F)cc3)cnc2OC)c2cccc(OC)c2F)cc(OC)n1	H37Rv		MIC90	resazurin		4.56 µM
NNC(=O)c1ccncc1	H37Rv (ATCC 27294)		MIC	resazurin		0.015 µg/mL
Cc1nn(-c2ccccc2)c(Cl)c1-c1nc(N)nc2c1c(C)nn2-c1cccc(S(=O)(=O)O)c1	H37Rv		MIC	resazurin		3.25 µg/mL
Cc1cc(C2=NNC(c3ccco3)C2)ccc1O	H37Rv		MIC			>6.25 µg/mL
Nc1ccc(C(=O)N/N=C/c2ccccc2)cc1	H37Rv		EC50			>12.5 µg/mL
Cc1cc(O)c(-c2ccccc2)c(=O)n1C1CCCCC1	H37Ra		MIC			64 µg/mL
Nc1ccc(C(=O)N/N=C/c2ccc(O)cc2)cc1	H37Rv		MIC			>12.5 µg/mL
Cc1cc(/C=N/N=c2\[nH][nH]/c(=N/N=C/c3cc(C)n(-c4ccccc4)c3C)c3ccccc23)c(C)n1-c1ccccc1		6.25 µg/mL	inhibition	resazurin		57%
CCCCCCC/C=C\CCCCCCCC(=O)O	ATCC 35822 INHr		MIC100	resazurin		>100 µg/mL
COc1c(O)cc2c(c1O)C(=O)C1=C(CCCC1)C2=O	H37Rv		MIC bound	BACTEC		>12.5 µg/mL
Cc1cc(O)c(-c2ccccc2)c(=O)n1Cc1ccccc1	H37Ra		MIC			8 µg/mL
CCC(=O)NN(Cn1c(=S)sc2ccccc21)Cn1c(=S)sc2ccccc21	H37Rv	12.5 µg/mL	inhibition	BACTEC		39%
CC(=O)/C(N=Nc1ccc(C(=O)N/N=C/c2ccc(N(C)C)cc2)cc1)=C(\C)O	H37Rv		EC50			>12.5 µg/mL
Nc1nc(F)c(F)c2c1ncn2[C@@H]1O[C@H](CO)[C@@H](O)[C@H]1O	SRICK1::ADOK		MIC			10–100 µg/mL
COc1ccc(C2CC(c3ccc(O)c(C)c3)=NN2)cc1	H37Rv		MIC			>6.25 µg/mL
C=C1CCCC(C)(C)[C@H]1CC/C(C)=C/CC/C(C)=C/Cn1c[n+](C)c2ncnc(N)c21		6.25 µg/mL	inhibition			61%
C[C@@H]1C[C@@H]2c3cccc4c3c(cn4CO)C[C@H]2N(C)C1	H37Rv		MIC bound	BACTEC		>12.5 µg/mL
O=C1CSC(c2ccccc2[N+](=O)[O-])N1NC1=Nc2ccccc2Sc2ccccc21	H37Rv		MIC	broth dilution		125 µg/mL
COc1cc([C@@](O)(CCN(C)C)[C@@H](c2cc(-c3cccnc3)cnc2OC)c2cccc(OC)c2F)cc(OC)n1	H37Rv		MIC90	resazurin		19.16 µM
Nc1ccc(C(=O)O)c(O)c1	Clinical isolate 9		MIC			20 µg/mL
Cc1cc(C2=NNC(c3ccccc3Cl)C2)ccc1O	H37Rv	6.25 µg/mL	inhibition			83%
CN(C)c1ccc(/C=C/C/C=N/NC(=O)c2ccc(N)cc2)cc1	H37Rv	12.5 µg/mL	inhibition			56%
COC(=O)/C(N=Nc1cccc(C)c1)=C(\C)O	H37Rv	6.25 µg/mL	inhibition	resazurin		0%
O=c1[nH]c2c(Cl)ccc(Cl)c2c(O)c1N=Nc1ccc(F)cc1	H37Rv		MIC	resazurin		<6.25 µg/mL
CO[C@H]1/C=C/O[C@@]2(C)Oc3c(C)c(O)c4c(O)c(c(/C=N/N5CCN(C)CC5)c(O)c4c3C2=O)NC(=O)/C(C)=C\C=C\[C@H](C)[C@H](O)[C@@H](C)[C@@H](O)[C@@H](C)[C@H](OC(C)=O)[C@@H]1C	H37Rv		MIC90	resazurin		0.06 µg/mL
CCCCCCc1ccc(O)c(C=Nc2cc(Cl)c(Cl)cc2NS(=O)(=O)c2ccccc2)c1	H37Rv		MIC bound	BACTEC		>6.25 µg/mL
O=C1[C@H](Cl)[C@H](c2cccc([N+](=O)[O-])c2)N1NC1=Nc2ccccc2Sc2ccccc21	H37Rv		MIC	broth dilution		1000 µg/mL
CC(=O)OC(C)(C)c1ccc2c(c1)C(=O)C[C@@H]1[C@](C)(C#N)CCC[C@]21C	H37Rv	12.5 µg/mL	inhibition	BACTEC		0%
CC(=O)/C(N=Nc1ccc(C(=O)N/N=C/c2ccccc2)cc1)=C(\C)O	H37Rv		MIC			>12.5 µg/mL
COC(=O)c1c(COC(=O)NC(C)C)c2n(c1C)CS(=O)(=O)C2	H37Rv	6.25 µg/mL	inhibition	resazurin		-50%
Nc1ncc(F)c2c1ncn2[C@@H]1O[C@H](CO)[C@@H](O)[C@H]1O	SRICK1::ADOK		MIC			10–100 µg/mL
O=C(CC1(O)C(=O)Nc2ccccc21)c1cccc([N+](=O)[O-])c1	H37Rv		MIC bound	resazurin		>6.25 µg/mL
Cc1cc(C(=O)/C=C/c2ccc(N(C)C)cc2)ccc1O	H37Rv	6.25 µg/mL	inhibition			91%
CSC(=S)n1nc(-c2ccccc2)c(N=Nc2ccc(Br)cc2)c1C	H37Rv	128 µg/mL	inhibition	BACTEC		100%
COc1ccc(C2SCC(=O)N2NC2=Nc3ccccc3Sc3ccccc32)cc1	H37Rv		MIC	broth dilution		1000 µg/mL
Cc1nnc2n1N=C(c1ccccc1)C(c1ccccc1)S2	H37Rv	12.5 µg/mL	inhibition	BACTEC		99%
COc1ccc(C)c(NCc2cnc3nc(N)nc(N)c3c2C)c1	H37Rv		MIC			6.25 µg/mL
NCC(=O)N[C@@H](CO)C(=O)O	H37Rv	12.8 µg/mL	inhibition	BACTEC		18%
Cc1c(C(=O)O)c(O)c(-c2ccccc2)c(=O)n1-c1ccccc1	H37Ra		MIC			>256 µg/mL
CCCCCCC(O)CC[C@H]1CCC[C@@H](C)N1	H37Rv	12.5 µg/mL	inhibition	BACTEC		9%
C1=C2CCCC/C=C\C=C\CCN3CC[C@@H]4[C@H](CCCCCC/C=C\C=C/CCN(C2)C[C@H]14)C3	H37Rv (ETH-resistant)		MIC			3.13 µg/mL